Assay results from ChEMBL document CHEMBL3217662 (Medchemcomm, 2011).

Each molecule was assayed against Protease (Human immunodeficiency virus 1, UniProt Q9YQ12) (assay: Inhibition of HIV1 protease using fluorogenic hexapeptide substrate (2-aminobenzoyl)Thr-Ile-Nle-(p-nitro)Phe-Gln-Arg by fluorimeter).

| SMILES | pKi |
| --- | --- |
| CC(C)(C)NC(=O)[C@@H]1C[C@@H]2CCCC[C@@H]2CN1C[C@@H](O)[C@H](Cc1ccccc1)NC(=O)[C@H](CC(N)=O)NC(=O)c1ccc2ccccc2n1 | 9.66 |
| CC(C)(C)NC(=O)[C@@H]1CN(Cc2cccnc2)CCN1C[C@@H](O)C[C@@H](Cc1ccccc1)C(=O)N[C@H]1c2ccccc2C[C@H]1O | 9.24 |
| Cc1cccc(C)c1OCC(=O)N[C@@H](Cc1ccccc1)[C@@H](O)C[C@H](Cc1ccccc1)NC(=O)[C@H](C(C)C)N1CCCNC1=O [LOPINAVIR] | 10.43 |

pKi: −log10 of the molar value.
